Measured values from several laboratories, pooled; numbers as filed in NIAID ChemDB.

Common to all: tests in culture; organism: Streptococcus pneumoniae; measure: MIC

Rows are shuffled and stem from different studies.

smiles,strain,result
O=C(Nc1cccc(C2=NCCN2)c1)Nc1cccc(C2=NCCN2)c1,STP51 (penicillin-resistant),38 µM
CC[C@H]1OC(=O)[C@@](C)(F)C(=O)[C@H](C)[C@@H](O[C@@H]2O[C@H](C)C[C@H](N(C)C)[C@H]2O)[C@@]2(C)C[C@@H](C)C(=NC(C)=O)[C@H](C)[C@@H](OC/C(=N\OCc3cccc(C(N)=O)c3)CO2)[C@]1(C)O,7701 (erythromycin A-resistant),0.5 µg/mL
CC[C@H]1OC(=O)[C@H](C)C(=O)[C@H](C)[C@@H](O[C@@H]2O[C@H](C)C[C@H](N(C)C)[C@H]2O)[C@@]2(C)C[C@@H](C)C(=NC(C)=O)[C@H](C)[C@@H](OC/C(=N\OCc3ccc(C(N)=O)cc3)CO2)[C@]1(C)O,700906 (erythromycin-resistant-ERM),0.25 µg/mL
CC[C@H]1OC(=O)[C@H](C)C(=O)[C@H](C)[C@@H](O[C@@H]2O[C@H](C)C[C@H](N(C)C)[C@H]2O)[C@@]2(C)C[C@@H](C)C(=NC(C)=O)[C@H](C)C(OC/C(=C\C=C\c3ccccc3)CO2)[C@]1(C)O,7701 (erythromycin-resistant-MEF),0.25 µg/mL
O=C(NCCO)NNC(=O)Nc1cc(C(F)(F)F)cc(C(F)(F)F)c1,STP6301,>200 µM
COc1c(N2CCNC(C)C2)ccc2c(=O)c(C(=O)O)cn(C3CC3)c12,R6-C11,16 µg/mL
CC[C@H]1OC(=O)[C@@](C)(F)C(=O)[C@H](C)[C@@H](O[C@@H]2O[C@H](C)C[C@H](N(C)C)[C@H]2O)[C@@]2(C)C[C@@H](C)C(=NC(C)=O)[C@H](C)[C@@H](OC/C(=N\OCc3ccc(-c4ncccn4)s3)CO2)[C@]1(C)O,49619 (erythromycin A-susceptible),<0.06 µg/mL
O=C(NNc1ccccn1)Nc1cc(C(F)(F)F)cc(C(F)(F)F)c1,STP51 (penicillin-resistant),>300 µM
CC[C@H]1OC(=O)[C@H](C)C(=O)[C@H](C)[C@@H](O[C@@H]2O[C@H](C)C[C@H](N(C)C)[C@H]2O)[C@@]2(C)C[C@@H](C)C(=NC(C)=O)[C@H](C)C(OC/C(=C\C=C\c3cccnc3)CO2)[C@]1(C)O,7701 (erythromycin-resistant-MEF),0.25 µg/mL
O=C(CCC(=O)Nc1cc(C(F)(F)F)cc(C(F)(F)F)c1)Nc1cc(C(F)(F)F)cc(C(F)(F)F)c1,STP6301,>300 µM
CC[C@H]1OC(=O)[C@H](C)C(=O)[C@H](C)[C@@H](O[C@@H]2O[C@H](C)C[C@H](N(C)C)[C@H]2O)[C@@]2(C)C[C@@H](C)C(=NC(C)=O)[C@H](C)[C@@H](OC/C(=N\OCC#Cc3ccc(N)nc3)CO2)[C@]1(C)O,7701 (erythromycin-resistant-MEF),<0.06 µg/mL
CN1CCN(c2cc3c(cc2F)c(=O)c(C(=O)O)cn3C2CC2)CC1,D-1687,8 µg/mL
CC[C@H]1OC(=O)[C@H](C)C(=O)[C@H](C)[C@@H](O[C@@H]2O[C@H](C)C[C@H](N(C)C)[C@H]2O)[C@@]2(C)C[C@@H](C)C(=NC(C)=O)[C@H](C)C(OC/C=C/CO2)[C@]1(C)O,700906 (erythromycin-resistant-ERM),>64 µg/mL
CN1CCN(c2ccc3c(=O)c(C(=O)O)cn(C4CC4)c3c2)CC1,R6-C11,128 µg/mL
CC[C@H]1OC(=O)[C@@](C)(F)C(=O)[C@H](C)[C@@H](O[C@@H]2O[C@H](C)C[C@H](N(C)C)[C@H]2O)[C@@]2(C)C[C@@H](C)C(=NC(C)=O)[C@H](C)[C@@H](OC/C(=N\OCc3ccc(-c4cccc(N)n4)s3)CO2)[C@]1(C)O,49619 (erythromycin A-susceptible),<0.06 µg/mL
O=C(CC(=O)Nc1ccc(F)cc1)Nc1ccc(F)cc1,STP51 (penicillin-resistant),>300 µM
CC[C@H]1OC(=O)[C@@](C)(F)C(=O)[C@H](C)[C@@H](O[C@@H]2O[C@H](C)C[C@H](N(C)C)[C@H]2O)[C@@]2(C)C[C@@H](C)C(=NC(C)=O)[C@H](C)[C@@H](OC/C(=N\OCc3ccc(C(N)=O)cc3)CO2)[C@]1(C)O,49619 (erythromycin A-susceptible),<0.06 µg/mL
CC[C@H]1OC(=O)[C@H](C)C(=O)[C@H](C)[C@@H](O[C@@H]2O[C@H](C)C[C@H](N(C)C)[C@H]2O)[C@@]2(C)C[C@@H](C)C(=NC(C)=O)[C@H](C)[C@@H](OC/C(=N\Oc3ccc(-n4cccn4)nc3)CO2)[C@]1(C)O,7701 (erythromycin-resistant-MEF),<0.06 µg/mL
CC[C@H]1OC(=O)[C@H](C)C(=O)[C@H](C)[C@@H](O[C@@H]2O[C@H](C)C[C@H](N(C)C)[C@H]2O)[C@@]2(C)C[C@@H](C)C(=NC(C)=O)[C@H](C)C(OC/C(=C\c3ccccc3)CO2)[C@]1(C)O,7701 (erythromycin-resistant-MEF),0.25 µg/mL
O=C(CC(=O)Nc1cc(C(F)(F)F)cc(C(F)(F)F)c1)Nc1cccc(C2=NCCN2)c1,STP6301,106 µM
CC[C@H]1OC(=O)[C@H](C)C(=O)[C@H](C)[C@@H](O[C@@H]2O[C@H](C)C[C@H](N(C)C)[C@H]2O)[C@@]2(C)C[C@@H](C)C(=NC(C)=O)[C@H](C)C(OC/C(=N/OCc3ccccc3)CO2)[C@]1(C)O,700906 (erythromycin-resistant-ERM),32 µg/mL
C[C@H]1NCc2cc(-c3c(F)cc4c(=O)c(C(=O)O)cn(C5CC5)c4c3OC(F)F)ccc21,R6,0.015 µg/mL
CC[C@H]1OC(=O)[C@H](C)C(=O)[C@H](C)[C@@H](O[C@@H]2O[C@H](C)C[C@H](N(C)C)[C@H]2O)[C@@]2(C)C[C@@H](C)C(=NC(C)=O)[C@H](C)C(OC/C(=C\c3cnc4ccccc4c3)CO2)[C@]1(C)O,49619 (erythromycin-susceptible),0.125 µg/mL
CC[C@H]1OC(=O)[C@H](C)C(=O)[C@H](C)[C@@H](O[C@@H]2O[C@H](C)C[C@H](N(C)C)[C@H]2O)[C@@]2(C)C[C@@H](C)C(=NC(C)=O)[C@H](C)[C@@H](OC/C(=N\Oc3ccc(-c4cnccn4)s3)CO2)[C@]1(C)O,49619 (erythromycin-susceptible),<0.06 µg/mL

A second listing of 3 rows from above:

smiles	strain	result
CC[C@H]1OC(=O)[C@H](C)C(=O)[C@H](C)[C@@H](O[C@@H]2O[C@H](C)C[C@H](N(C)C)[C@H]2O)[C@@]2(C)C[C@@H](C)C(=NC(C)=O)[C@H](C)[C@@H](OC/C(=N\OCC#Cc3ccc(N)nc3)CO2)[C@]1(C)O	7701 (erythromycin-resistant-MEF)	<0.06 µg/mL
CC[C@H]1OC(=O)[C@H](C)C(=O)[C@H](C)[C@@H](O[C@@H]2O[C@H](C)C[C@H](N(C)C)[C@H]2O)[C@@]2(C)C[C@@H](C)C(=NC(C)=O)[C@H](C)C(OC/C(=C\C=C\c3ccccc3)CO2)[C@]1(C)O	7701 (erythromycin-resistant-MEF)	0.25 µg/mL
O=C(CCC(=O)Nc1cc(C(F)(F)F)cc(C(F)(F)F)c1)Nc1cc(C(F)(F)F)cc(C(F)(F)F)c1	STP6301	>300 µM